pIC50: −log10 of the molar value.
How the values were obtained:
[1] = target: Human immunodeficiency virus type 1 reverse transcriptase (Human immunodeficiency virus 1, UniProt Q72547, Y181C); assay: Inhibitory activity against HIV-1 Y181C reverse transcriptase.
[2] = target: Human immunodeficiency virus type 1 reverse transcriptase (Human immunodeficiency virus 1, UniProt Q72547, Y188L); assay: Inhibitory activity against HIV-1 Y188L reverse transcriptase.

CCN1c2ncc(COc3ccccc3F)cc2C(=O)N(C)c2ccc(Cl)nc21
pIC50 [1]: 6.24

CCN1c2ncc(COc3cccc(O)c3)cc2C(=O)N(C)c2ccc(Cl)nc21
pIC50 [1]: 6.60
pIC50 [2]: 6.11

From ChEMBL document CHEMBL1131307, “Novel nonnucleoside inhibitors of HIV-1 reverse transcriptase. 8. 8-Aryloxymethyl- and 8-arylthiomethyldipyridodiazepinones” (J Med Chem, 1998)
